Reference: US8455223B2, “Dehydrogenases, the derivatives thereof, and method for the production of optically active alkanols” (BASF SE, priority 2005, dated 2013)

Assays:
Format in all cases: biochemical, Candida
[1] = system: ADH-3 enzyme SEQ ID NO: 2; assay: Relative activity of dehydrogenase for various substrates, with cofactor regeneration in the 2-phase system (Example 3); settings: two-phase (MTBE: aqueous), value in brackets, configuration R/S printed in cell
[2] = system: ADH-3 enzyme SEQ ID NO: 2; assay: Relative activity of dehydrogenase for various substrates, without cofactor regeneration (Example 1); settings: value in brackets
Method: (§1) Relative activity of the dehydrogenases of the invention for various substrates (optical purity in % ee is indicated in brackets)
(§2) The reaction was carried out without cofactor regeneration.
(§3) 180 μl of 50 mM Kpi buffer, including 1 mM MgCl2
(§4) 200 μl of NADPH, 10 mM stock solution
(§5) 100 μl of substrate, 1 M stock solution 500 μl of hexane
(§6) The reaction mixture was incubated at 37° C. and 1000 rpm for approx. 20 hours. It was then centrifuged at 20° C., the clear supernatant was removed and analyzed by chiral gas chromatography.

[3] = system: ADH-4 enzyme SEQ ID NO: 4; assay: as above; settings: value in brackets
Method: as §1, §2, §3, §4, §5, §6

[4] = system: ADH-4 enzyme SEQ ID NO: 4; assay: Relative activity of dehydrogenase for various substrates, with cofactor regeneration in the 2-phase system (Example 3); settings: two-phase (MTBE: aqueous), value in brackets, configuration R/S printed in cell
[5] = system: ADH-3 enzyme SEQ ID NO: 2; assay: Relative activity of dehydrogenase for various substrates, with cofactor regeneration, monophasic liquid system (Example 2); settings: value in brackets, configuration R/S printed in cell
Method: Relative activity of the dehydrogenases of the invention for various substrates (optical purity in % ee is indicated in brackets) with cofactor regeneration.
The reaction was carried out in a manner similar to example 1. Cofactor regeneration was carried out by way of addition of glucose and glucose dehydrogenase in a monophasic liquid system.

Compound	optical purity [1]	optical purity [2]	optical purity [3]	optical purity [4]	optical purity [5]
CC(=O)c1ccccc1 [Acetophenone]	> 99 % ee	> 99 % ee	70 % ee	70 % ee	> 99 % ee
4-chloro-methoxyacetophenone [CMAP]	> 99 % ee	90 % ee	88 % ee	97 % ee	
